Results of unrelated studies side by side (data: NIAID ChemDB).

Common to all: growth or infection tests

An empty or dashed field is not shown. Percent inhibition refers to the dose given; in toxicity tests it is the harm to the cells. A number after MIC or MFC names an inhibition level or a share of isolates. Rows are shuffled and stem from different studies. ECn is the concentration giving n% inhibition of infection, replication or growth.

compound,agent,changes,method,tested at,strain,read-out,cells,value
OC(Cn1cncn1)(Cn1cncn1)c1ccc(F)cc1F,Candida albicans,,broth dilution,,YL 351,MIC,,512 µg/mL
CC[C@H]1OC(=O)[C@H](C)[C@@H](O[C@H]2C[C@@](C)(OC)[C@@H](O)[C@H](C)O2)[C@H](C)[C@@H](O[C@@H]2O[C@H](C)C[C@H](N(C)C)[C@H]2O)[C@](C)(OC)C[C@@H](C)C(=O)[C@H](C)[C@@H](O)[C@]1(C)O,Mycobacterium abscessus,,broth dilution,,X72,MIC,,16 µg/mL
CCCSc1ccc2nc(NC(=O)OC)[nH]c2c1,Vittaforma corneae,,,0.01 µg/mL,,inhibition,RK-13,14%
O=C1C(=O)c2ccccc2C(O)=C1C1CCC(c2ccc(Cl)cc2)CC1,Encephalitozoon cuniculi,,cytopathic effect,5 µg/mL,,inhibition,MRC-5 fibroblasts,0%
Nc1ccn([C@@H]2C[C@H](CO)[C@@H](O)[C@H]2O)c(=O)n1,Vesicular stomatitis virus,,cytopathic effect,,,EC50,PRK,4 µg/mL
CCC(C)n1ncn(-c2ccc(N3CCN(c4ccc(OC[C@H]5CO[C@](Cn6cncn6)(c6ccc(Cl)cc6Cl)O5)cc4)CC3)cc2)c1=O,Encephalitozoon cuniculi,,cytopathic effect,0.05 µg/mL,,inhibition,MRC-5 fibroblasts,0%
CN(C)c1cc(NC(=O)CNC(C)(C)C)c(O)c2c1C[C@H]1C[C@H]3[C@H](N(C)C)C(=O)C(C(N)=O)=C(O)[C@@]3(O)C(=O)C1=C2O,Mycobacterium abscessus,,broth dilution,,X42,MIC,,0.5 µg/mL
NC1CCN(c2c(F)cc3c(=O)c(C(=O)O)cn(C4CC4)c3c2Cl)C1,Staphylococcus aureus,,,,20 strains (oxacillin-susceptible),MIC50,,0.015 µg/mL
C[C@H]1c2cccc(O)c2C(O)=C2C(=O)[C@]3(O)C(O)=C(C(N)=O)C(=O)[C@@H](N(C)C)[C@@H]3[C@@H](O)[C@@H]21,Encephalitozoon cuniculi,,cytopathic effect,20 µg/mL,,inhibition,MRC-5 fibroblasts,96%
COc1cc2oc(=O)ccc2cc1CC(O)C(C)(C)O,Staphylococcus epidermidis,,,,,MIC,,15.6 µg/mL
CCO/N=C/c1ccc(OCCC2CCN(c3ccc(C)nn3)CC2)cc1,Rhinovirus,,neutral red,,JM1 (ICAM-1 receptor group 91),EC50,KB,0.06 µM
COc1cc(C[C@H](C)[C@H](C)Cc2ccc(O)c(O)c2)ccc1O,Candida albicans,,broth dilution,,CCC 128-2000,MIC80,,31.25 µg/mL
CC[C@H]1OC(=O)[C@H](C)[C@@H](O[C@H]2C[C@@](C)(OC)[C@@H](O)[C@H](C)O2)[C@H](C)[C@@H](O[C@@H]2O[C@H](C)C[C@H](N(C)C)[C@H]2O)[C@](C)(O)C[C@@H](C)/C(=N\OCOCCOC)[C@H](C)[C@@H](O)[C@]1(C)O,Encephalitozoon cuniculi,,cytopathic effect,10 µg/mL,,inhibition,MRC-5 fibroblasts,0%
CO[C@@H]1[C@H](OC(=O)NC(=O)CCl)CC[C@]2(CO2)[C@H]1[C@@]1(C)O[C@@H]1CC=C(C)C,Vittaforma corneae,,,0.001 µg/mL,,inhibition,RK-13,75.1%
CN(C)[C@@H]1C(=O)C(C(N)=O)=C(O)[C@@]2(O)C(=O)C3=C(O)c4c(O)c(NC(=O)CNc5ccccc5)cc(F)c4C[C@H]3C[C@@H]12,Enterococcus faecalis,,agar diffusion,,103-29212,EC50,,2 µg/mL
CCOC(=O)Nc1nc(NC(=O)OCC)c2c(c1N)NC(C)C(c1ccccc1)=N2,Encephalitozoon intestinalis,,,1 µg/mL,,inhibition,RK-13,13.2%
CC(C)=CCN1c2cc(Cl)cc3[nH]c(=S)n(c23)C[C@@H]1C,HIV-1,RT-M41L T215Y A98G,,,,EC95,MT-4,0.8 µM
CC(=O)Oc1ccccc1C(=O)Nc1ncc([N+](=O)[O-])s1,Vittaforma corneae,,,10 µg/mL,,inhibition,RK-13,83%
C#CC[C@@H](C(=O)N[C@H](/C=C/C(=O)OCC)C[C@@H]1CCNC1=O)n1cccc(NC(=O)c2cc(C)on2)c1=O,Rhinovirus,,cytopathic effect / XTT,,Serotype 23,EC50,H1-HELA,0.032 µM
NC(N)=NS(=O)(=O)c1ccc(N)cc1,Encephalitozoon cuniculi,,cytopathic effect,,,EC50,MRC-5 fibroblasts,>50 µg/mL
COC(=O)Nc1nc2ccc(C(=O)c3ccccc3)cc2[nH]1,Encephalitozoon intestinalis,,,0.1 µg/mL,,inhibition,RK-13,69.2%

Again, the opening 3 rows:

compound,agent,changes,method,tested at,strain,read-out,cells,value
OC(Cn1cncn1)(Cn1cncn1)c1ccc(F)cc1F,Candida albicans,,broth dilution,,YL 351,MIC,,512 µg/mL
CC[C@H]1OC(=O)[C@H](C)[C@@H](O[C@H]2C[C@@](C)(OC)[C@@H](O)[C@H](C)O2)[C@H](C)[C@@H](O[C@@H]2O[C@H](C)C[C@H](N(C)C)[C@H]2O)[C@](C)(OC)C[C@@H](C)C(=O)[C@H](C)[C@@H](O)[C@]1(C)O,Mycobacterium abscessus,,broth dilution,,X72,MIC,,16 µg/mL
CCCSc1ccc2nc(NC(=O)OC)[nH]c2c1,Vittaforma corneae,,,0.01 µg/mL,,inhibition,RK-13,14%